Pooled drug test results. Numbers come from NIAID ChemDB, via PubChem.

Shared fields: growth or infection tests; agent: Mycobacterium avium complex

Lines come from different laboratories, so protocols vary.

{"structure": "CO[C@H]1/C=C/O[C@@]2(C)Oc3c(C)c(O)c4c(O)c(c(/C=N/N5CCN(C/C=C/c6ccccc6)CC5)c(O)c4c3C2=O)NC(=O)/C(C)=C\\C=C\\[C@H](C)[C@H](O)[C@@H](C)[C@@H](O)[C@@H](C)[C@H](OC(C)=O)[C@@H]1C", "measure": "MBC", "strain": "SK-18", "value": "2 µg/mL"}
{"structure": "CN[C@@H]1[C@@H](O)[C@@H](O[C@@H]2[C@@H](O)[C@H](O[C@H]3O[C@H](CN)CC[C@H]3N)[C@@H](N)C[C@H]2N)OC[C@]1(C)O", "measure": "MIC", "strain": "Isolate 64", "value": "12.5 µg/mL"}
{"structure": "NC[C@@H]1O[C@H](O[C@H]2[C@@H](O)[C@H](O[C@@H]3[C@@H](O)[C@H](N)C[C@H](N)[C@H]3O[C@H]3O[C@H](CO)[C@@H](O)[C@H](O)[C@H]3N)O[C@@H]2CO)[C@H](N)[C@@H](O)[C@@H]1O", "measure": "MIC50", "strain": "32 isolates", "value": "8 µg/mL"}
{"structure": "CO[C@H]1/C=C/O[C@@]2(C)Oc3c(C)c(O)c4c(O)c(c5c(c4c3C2=O)NC2(CCN(CC(C)C)CC2)N=5)=NC(=O)/C(C)=C\\C=C\\[C@H](C)[C@H](O)[C@@H](C)[C@@H](O)[C@@H](C)[C@H](OC(C)=O)[C@@H]1C", "measure": "MIC50", "strain": "10 isolates", "value": "0.25 µg/mL"}
{"structure": "Cc1cc2nc3c(=O)[nH]c(=O)nc-3n(C[C@H](O)[C@H](O)[C@H](O)CO)c2cc1C", "measure": "MIC90", "strain": "32 isolates", "value": "128 µg/mL"}
{"structure": "NNC(=O)c1ccncc1", "measure": "MIC", "strain": "13008 (serotype 20)", "value": "3.2 µg/mL"}
{"structure": "CCCCCCCCCCCCOC(=O)c1cc(O)c(O)c(O)c1", "measure": "MIC90", "strain": "32 isolates", "value": ">128 µg/mL"}
{"structure": "CC1COc2c(N3CCN(C)CC3)c(F)cc3c(=O)c(C(=O)O)cn1c23", "measure": "MIC", "strain": "CIPT 14031005", "value": "20 µg/mL"}
{"structure": "CO[C@H]1/C=C/O[C@@]2(C)Oc3c(C)c(O)c4c(O)c(c(/C=N/N5CCN(C)CC5)c(O)c4c3C2=O)NC(=O)/C(C)=C\\C=C\\[C@H](C)[C@H](O)[C@@H](C)[C@@H](O)[C@@H](C)[C@H](OC(C)=O)[C@@H]1C", "measure": "MIC", "strain": "1008", "value": "16 µg/mL"}
{"structure": "NC[C@@H]1O[C@H](O[C@H]2[C@@H](O)[C@H](O[C@@H]3[C@@H](O)[C@H](N)C[C@H](N)[C@H]3O[C@H]3O[C@H](CO)[C@@H](O)C[C@H]3N)O[C@@H]2CO)[C@H](N)[C@@H](O)[C@@H]1O[C@H]1O[C@H](CO)[C@@H](O)[C@H](O)[C@@H]1O", "measure": "MIC", "strain": "TMC 1469", "value": "6.25 µg/mL"}
{"structure": "c1ccc(N=Nc2ccccc2)cc1", "measure": "MIC50", "strain": "32 isolates", "value": "128 µg/mL"}
{"structure": "NCCC(O)C(N)CC(=O)NC1CNC(=O)C(C2CCN=C(N)N2)NC(=O)/C(=C/NC(N)=O)NC(=O)C(CO)NC(=O)C(CO)NC1=O", "measure": "MIC", "strain": "Isolate 53", "value": "6.25 µg/mL"}
{"structure": "CC(C)N=c1cc2n(-c3ccc(Cl)cc3)c3ccccc3nc-2cc1Nc1ccc(Cl)cc1", "measure": "MIC", "strain": "32 isolates", "value": "2 µg/mL"}
{"structure": "CO[C@H]1/C=C/O[C@@]2(C)Oc3c(C)c(O)c4c(O)c(c5c(c4c3C2=O)NC2(CCN(CC(C)C)CC2)N=5)=NC(=O)/C(C)=C\\C=C\\[C@H](C)[C@H](O)[C@@H](C)[C@@H](O)[C@@H](C)[C@H](OC(C)=O)[C@@H]1C", "measure": "MBC", "strain": "921", "value": "32 µg/mL"}
{"structure": "CO[C@H]1/C=C/O[C@@]2(C)Oc3c(C)c(O)c4c(O)c(c5c(c4c3C2=O)NC2(CCN(CC(C)C)CC2)N=5)=NC(=O)/C(C)=C\\C=C\\[C@H](C)[C@H](O)[C@@H](C)[C@@H](O)[C@@H](C)[C@H](OC(C)=O)[C@@H]1C", "measure": "MIC", "strain": "32 isolates", "value": "1 µg/mL"}
{"structure": "CC[C@@H](CO)NCCN[C@@H](CC)CO", "measure": "MBC", "strain": "211-5", "value": "15 µg/mL"}
{"structure": "CO[C@H]1/C=C/O[C@@]2(C)Oc3c(C)c(O)c4c(O)c(c(/C=N/N5CCN(C)CC5)c(O)c4c3C2=O)NC(=O)/C(C)=C\\C=C\\[C@H](C)[C@H](O)[C@@H](C)[C@@H](O)[C@@H](C)[C@H](OC(C)=O)[C@@H]1C", "measure": "MIC", "strain": "13011 (serotype 16)", "value": "0.4 µg/mL"}
{"structure": "NC1CCN(c2nc3c(cc2F)c(=O)c(C(=O)O)cn3-c2ccc(F)cc2F)C1", "measure": "MBC90", "strain": "25 isolates", "value": ">8 µg/mL"}
{"structure": "CC1COc2c(N3CCN(C)CC3)c(F)cc3c(=O)c(C(=O)O)cn1c23", "measure": "MIC90", "strain": "101 isolates", "value": "16 µg/mL"}
{"structure": "NCC[C@H](O)C(=O)N[C@@H]1C[C@H](N)[C@@H](O[C@H]2O[C@H](CN)[C@@H](O)[C@H](O)[C@H]2O)[C@H](O)[C@H]1O[C@H]1O[C@H](CO)[C@@H](O)[C@H](N)[C@H]1O", "measure": "MIC", "strain": "TMC 1469", "value": "1.56 µg/mL"}
{"structure": "NNC(=O)c1ccncc1", "measure": "MIC", "strain": "1124", "value": "4 µg/mL"}
{"structure": "CN1CCN(CCCN2c3ccccc3Sc3ccc(C(F)(F)F)cc32)CC1", "measure": "MIC90", "strain": "32 isolates", "value": "8 µg/mL"}
{"structure": "NC[C@H]1O[C@H](O[C@H]2[C@H](O)[C@@H](O[C@H]3O[C@H](CO)[C@@H](O)[C@H](N)[C@H]3O)[C@H](N)C[C@@H]2N)[C@H](O)[C@@H](O)[C@@H]1O", "measure": "MIC", "strain": "Isolate C-18", "value": "50 µg/mL"}
{"structure": "NC[C@H]1O[C@H](O[C@H]2[C@H](O)[C@@H](O[C@H]3O[C@H](CO)[C@@H](O)[C@H](N)[C@H]3O)[C@H](N)C[C@@H]2N)[C@H](N)[C@@H](O)[C@@H]1O", "measure": "MIC", "strain": "Isolate 53", "value": "6.25 µg/mL"}
{"structure": "CCn1cc(C(=O)O)c(=O)c2cc(F)c(N3CCN(C)CC3)cc21", "measure": "MIC", "strain": "CIPT 14031003", "value": "20 µg/mL"}
{"structure": "CC[C@@H](CO)NCCN[C@@H](CC)CO", "measure": "MIC", "strain": "189-4", "value": "1.9 µg/mL"}
{"structure": "COc1ccc2c(c1)c(CC(=O)O)c(C)n2C(=O)c1ccc(Cl)cc1", "measure": "MIC50", "strain": "32 isolates", "value": ">128 µg/mL"}

Again, the opening 2 rows:

{"structure": "CO[C@H]1/C=C/O[C@@]2(C)Oc3c(C)c(O)c4c(O)c(c(/C=N/N5CCN(C/C=C/c6ccccc6)CC5)c(O)c4c3C2=O)NC(=O)/C(C)=C\\C=C\\[C@H](C)[C@H](O)[C@@H](C)[C@@H](O)[C@@H](C)[C@H](OC(C)=O)[C@@H]1C", "measure": "MBC", "strain": "SK-18", "value": "2 µg/mL"}
{"structure": "CN[C@@H]1[C@@H](O)[C@@H](O[C@@H]2[C@@H](O)[C@H](O[C@H]3O[C@H](CN)CC[C@H]3N)[C@@H](N)C[C@H]2N)OC[C@]1(C)O", "measure": "MIC", "strain": "Isolate 64", "value": "12.5 µg/mL"}

MIC50, MIC90 and the like: level of inhibition, or share of isolates inhibited.